A mixed list of measured activities; the numbers were collected in NIAID ChemDB.

Shared fields: whole-cell or culture tests; agent: HIV-1; method: RT activity; read-out: EC90

Two numbers with a dash give a range or band. ECn: concentration that inhibits the pathogen or its effect by n%. Conditions beyond the fields shown may differ between rows. An empty or dashed field is not shown.

| smiles | changes | strain | cell line | result |
|---|---|---|---|---|
| O=c1[nH]c(=O)n([C@@H]2C=C[C@@H](CO)O2)cc1F | - | LAI | PBMC | 23 µM |
| CC(=O)N[C@H](C(=O)N[C@@H](Cc1ccccc1)[C@@H](O)CN(CC(C)C)NC(=O)[C@@H](NC(C)=O)C(C)C)C(C)C | - | LAV | MT-2 | >1 µM |
| COCCNC(=O)[C@@H](NC(=O)[C@H](Cc1ccc(OC)c(OC)c1OC)C[C@H](O)[C@H](Cc1ccccc1)NC(=O)OC(C)(C)C)C(C)C | - | LAI | PBL | 0.045 µM |
| CCCCCCCCc1cc2cn(COCCO)c(=O)nc2o1 | - | LAI | PBMC | >100 µM |
| CC(C)CN(C[C@@H](O)[C@H](Cc1ccccc1)NC(=O)[C@H](CC(N)=O)NC(=O)c1ccc2ccccc2n1)C(=O)NC(C)(C)C | - | - | CEM | 0.08 µg/mL |
| CC(=O)c1cn(CC=C(CO)CO)c(=O)[nH]c1=O | - | LAI | PBMC | 39 µM |
| Nc1nc2c(ncn2C2CC(CCP(=O)(O)O)(C(F)(F)F)CO2)c(=O)[nH]1 | - | LAI | PBMC | 95 µM |
| CC(C)(C)NC(=O)[C@@H]1CN(Cc2cccnc2)CCN1C[C@@H](O)C[C@@H](Cc1ccccc1)C(=O)N[C@H]1c2ccccc2C[C@H]1O | - | MN | MT-2 | 0.032 µM |
| Nc1nc(N)c2ncn(C[C@@H](CO)OCP(=O)(O)O)c2n1 | - | LAV | C3 | 36 µM |
| Nc1nc2c(ncn2[C@@H]2C[C@H](OCP(=O)(O)O)CC2(F)F)c(=O)[nH]1 | - | LAI | PBMC | 95 µM |
| Nc1ncnc2c1ncn2C1CC(/C=C/P(=O)(O)O)(C(F)(F)F)CO1 | - | LAI | PBMC | 90 µM |
| Nc1nc(=O)n([C@H]2C=C[C@@H](CO)O2)cc1Br | - | LAI | PBMC | >10 µM |
| Nc1ncnc2c1ncn2C1OC(CO)C=C1F | - | LAV | PBMC | 15.1 µM |
| O=C(O)C(=O)CC(=O)c1cc2ccccc2c2ccccc12 | - | LAI | PBMC | >100 µM |
| Cc1cn([C@H]2C[C@H](N=[N+]=[N-])[C@@H](COP(=O)(O)OC[C@@H]3CC[C@H](n4cnc5c(=O)[nH]cnc54)O3)O2)c(=O)[nH]c1=O | - | LAV | PBMC | 0.002–0.0037 µM |
| O[C@]12C=C(Cc3cnccn3)[C@@H]3CCN(CCCC/C=C\CC1)C[C@@]31C[C@@H]3CCCCCCN3C12 | - | LAV | PBMC | >100 µM |
| Cc1cn([C@@H]2C[C@@H](N=[N+]=[N-])[C@H](COP(=O)(O)OC[C@H]3O[C@@H](n4cc(C)c(=O)[nH]c4=O)C[C@@H]3N=[N+]=[N-])O2)c(=O)[nH]c1=O | - | LAV | PBMC | 0.048 µM |
| Nc1ncnc2c1ncn2[C@@H]1C[C@H](OCP(=O)(O)O)CC1(F)F | - | LAI | PBMC | 90 µM |
| Nc1c(S(=O)(=O)O)cc2c3c(cc(S(=O)(=O)O)cc13)C(=O)N(NC(=O)N/N=C\c1ccc(-c3ccc(C=O)cc3)cc1)C2=O | - | LAV | - | 465.5 µM |
| CCCCCc1cc2cn(COCCO)c(=O)nc2o1 | - | LAI | PBMC | 19.8 µM |
| Cc1cn([C@H]2C[C@H](N=[N+]=[N-])[C@@H](CO)O2)c(=O)[nH]c1=O | - | NL4-3 | CEM | 0.045 µM |
| CCCCCc1ccc(C#Cc2cn(COCCO)c(=O)[nH]c2=O)cc1 | - | LAI | PBMC | >100 µM |
| Nc1nc2c(ncn2[C@H]2C=C[C@@H](CO)C2)c(=O)[nH]1 | - | IIIB | PBMC | 0.5–1 µM |
| [O-][n+]1ccc(CC2=C[C@@]3(O)CC/C=C\CCCCN4CC[C@@H]2[C@]2(C[C@@H]5CCCCCCN5C23)C4)cc1 | - | LAV | PBMC | 35.6 µM |
| Nc1nc2c(ncn2COCCO)c(=O)[nH]1 | - | LAI | PBMC | >100 µM |
| Cc1cn([C@H]2C[C@H](N=[N+]=[N-])[C@@H](CO)O2)c(=O)[nH]c1=O | - | Subtype B isolate | PBMC | <0.03 µM |
| Nc1ccn([C@@H]2C=C(F)[C@H](CO)S2)c(=O)n1 | RT-M184V | 3TC-resistant (RT M184V) | PBMC | >100 µM |
| Nc1nc(N)c2ncn(CCOCP(=O)(O)O)c2n1 | - | LAV | C3 | 3 µM |
| Cc1cnc(CC2=C[C@@]3(O)CC/C=C\CCCCN4CC[C@@H]2[C@]2(C[C@@H]5CCCCCCN5C23)C4)cn1 | - | LAV | PBMC | 57.9 µM |
| Nc1nc(=O)n([C@@H]2C[Se][C@H](CO)O2)cc1F | RT-M184V | BRU(RT-M184V) | PBMC | >50 µM |
| Cc1cn([C@H]2C[C@H](N=[N+]=[N-])[C@@H](COP(=O)(O)OC[C@H]3CC[C@@H](n4cnc5c(N)ncnc54)O3)O2)c(=O)[nH]c1=O | - | LAV | PBMC | 0.0011 µM |
| Cc1cn([C@H]2C[C@H](N=[N+]=[N-])[C@@H](CO)O2)c(=O)[nH]c1=O | - | LAI | PBMC | 0.2 µM |

The first 5 rows once more:

O=c1[nH]c(=O)n([C@@H]2C=C[C@@H](CO)O2)cc1F ; strain: LAI ; cell line: PBMC ; result: 23 µM
CC(=O)N[C@H](C(=O)N[C@@H](Cc1ccccc1)[C@@H](O)CN(CC(C)C)NC(=O)[C@@H](NC(C)=O)C(C)C)C(C)C ; strain: LAV ; cell line: MT-2 ; result: >1 µM
COCCNC(=O)[C@@H](NC(=O)[C@H](Cc1ccc(OC)c(OC)c1OC)C[C@H](O)[C@H](Cc1ccccc1)NC(=O)OC(C)(C)C)C(C)C ; strain: LAI ; cell line: PBL ; result: 0.045 µM
CCCCCCCCc1cc2cn(COCCO)c(=O)nc2o1 ; strain: LAI ; cell line: PBMC ; result: >100 µM
CC(C)CN(C[C@@H](O)[C@H](Cc1ccccc1)NC(=O)[C@H](CC(N)=O)NC(=O)c1ccc2ccccc2n1)C(=O)NC(C)(C)C ; cell line: CEM ; result: 0.08 µg/mL